A mixed list of measured activities; the numbers were collected in NIAID ChemDB.

All rows: tests in culture; agent: HIV-1

Rows are shuffled and stem from different studies. Blank or dashed fields: not listed here. ECn is the concentration giving n% inhibition of infection, replication or growth.

SMILES	cell line	endpoint	strain	mutations	read by	value
C=C1CN(S(=O)(=O)c2ccc(C)cc2)CCCN(CC(C)CC)CCCN(S(=O)(=O)c2ccc(C)cc2)C1	MT-4	EC50	NL4-3	-	p24	0.98 µM
CCCSC(=Nc1ccc(Cl)c(C(=O)OC(C)C)c1)OC(C)C	CEM	EC50	-	RT-V106A	syncytia	>27.78 µM
O=c1nc(-n2cncn2)ccn1[C@@H]1O[C@H](CO)[C@@H](O)[C@H]1O	C8166	EC50	IIIB Laboratory clade B	-	syncytia	100 µM
Nc1ccn([C@H]2CC[C@@H](CO)O2)c(=O)n1	MT-4	EC50	IIIB	-	cytopathic effect / trypan blue	0.3 µM
C/C=C\COc1cc(NC(=S)OC(C)C)ccc1Cl	CEM	EC50	IIIB	RT-K101E	-	0.033 µM
CC(=O)OC[C@H]1O[C@@H](n2cc(C)c(Oc3c(F)c(F)c(F)c(F)c3F)nc2=O)C[C@@H]1N=[N+]=[N-]	C8166	EC50	IIIB Laboratory clade B	-	syncytia	2 µM
Cc1[nH]c2ccccc2c1CC(=O)N[C@@H](Cc1ccccc1)C(=O)N(C)c1ccccc1	SupT1	EC50	R9	-	GFP / reporter gene	0.3 µM
CC(C)(C)C(=O)OCOP(=O)(CC[C@H]1O[C@@H](n2cnc3c(N)ncnc32)[C@](C)(F)[C@@H]1O)OCOC(=O)C(C)(C)C	PBMC	EC90	LAI	-	PCR	>100 µM
Cc1ccc2c(c1)C(=O)N(C13CC4CC(CC(C4)C1)C3)C2=O	CEM	EC50	IIIB	-	syncytia	>336 µM
C=C1CN(S(=O)(=O)c2ccc(C)cc2)CCCN(C(=O)OCCC)CCCN(S(=O)(=O)c2ccc(C)cc2)C1	MT-4	EC50	NL4-3	-	p24	2.6 µM
Cc1cc(C)cc(Sc2c(C(=O)NNCCO)[nH]c3ccc(Cl)cc23)c1	MT-4	EC50	IIIB	-	cytopathic effect / MTT	0.03 µM
COc1ccc(C(=O)OC(c2cc(OC)c(OC)c(OC)c2)[C@H](C)C(C)O)cc1OC	C8166	EC50	-	-	-	3.87 µg/mL
CC(C)OC(=O)c1cc(NC(=S)OC(C)(C)C)ccc1Cl	CEM	EC50	-	RT-L100I	syncytia	≥30.32 µM
Cc1cn([C@@H]2CS[C@H](CO)O2)c(=O)[nH]c1=O	MT-4	EC50	-	-	syncytia	>200 µM
CC(C)OC(=S)Nc1ccc(Cl)c(C(=O)OCC2CC2)c1	CEM	EC50	-	RT-E138K	syncytia	1.83 µM
Cc1ccc(C)c2c1NC(=O)C2CC(=O)N[C@@H](Cc1ccccc1)C(=O)N(C)c1cccc(F)c1	-	EC50	NL4-3	-	fluorescence	2.8 µM
CSc1ccc(NC(=S)OC(C)C)cc1C(=O)OC(C)C	CEM	EC50	-	RT-L100I	syncytia	2.596 µM
O=c1nc(-n2cncn2)ccn1[C@H]1C[C@H](O)[C@@H](CO)O1	C8166	EC50	IIIB Laboratory clade B	-	syncytia	>1000 µM
Cc1cc(C)cc(Sc2c(C(=O)NCCO)[nH]c3ccc(Cl)cc23)c1	C8166	EC50	IIIB	-	cytopathic effect / MTT	0.015 µM
COc1ccnc2[nH]cc(C(=O)C(=O)N3CC/C(=C(\C#N)c4ccccc4)CC3C)c12	HeLa	EC50	-	-	luciferase	<1 µM
C=C1CN(S(=O)(=O)c2ccc(C)cc2)CCCN(C(C)=O)CCCN(S(=O)(=O)c2ccc(C)cc2)C1	MT-4	EC50	NL4-3	-	p24	>75 µM
CC(C)(C)C(=O)OCOP(=O)(CC[C@H]1O[C@@H](n2cnc3c(=O)[nH]c(N)nc32)[C@](C)(F)[C@@H]1O)OCOC(=O)C(C)(C)C	PBMC	EC90	LAI	-	PCR	>100 µM
Cc1cc(C)cc(S(=O)(=O)c2c(C(=O)NCCO)[nH]c3ccc(Cl)cc23)c1	MT-4	EC50	-	RT-Y181C	cytopathic effect / MTT	0.2 µM
CC(C)OC(=S)Nc1ccc(Cl)c(C(=O)OC2(C)COC2)c1	CEM	EC50	-	RT-Y181C	syncytia	1.454 µM
Cc1cc(S(N)(=O)=O)ccc1NC(=O)COc1ccc(Cl)cc1C(=O)c1cc(F)cc(C(F)(F)F)c1	HELA MAGI	EC50	IIIB	RT-V106A	luciferase	0.01 µM
CC(C)COC(=O)N[C@@H](Cc1ccccc1)C(=O)N[C@H](Cc1ccc2ccccc2c1)C(=O)N1CCC(C(=O)O[C@@H](CC(C)C)C(=O)N[C@H](C(=O)O)C(C)C)CC1	HT4 + HT4-6C	EC50	BRU	-	plaque count	11.5 µM
Cc1cn([C@H]2C[C@H](N=[N+]=[N-])[C@@H](CO)O2)c(=O)[nH]c1=O	C8166	EC50	IIIB	-	cytopathic effect	0.0031 µg/mL
NCCNC(=O)c1cn([C@H]2CS[C@@H](CO)O2)c(=O)[nH]c1=O	MT-4	EC50	-	-	syncytia	>200 µM
Cc1ccccc1S(=O)(=O)c1c(C(=O)NCCO)[nH]c2ccc(Cl)cc12	MT-4	EC50	-	RT-Y181C	cytopathic effect / MTT	1.2 µM
CCC(CC)COC(=O)c1cc(NC(=S)OC(C)C)ccc1Cl	CEM	EC50	IIIB	-	syncytia	0.084 µM
O=C(N[C@@H](Cc1ccccc1)C(=O)C(F)(F)C(Cc1ccccc1)NS(=O)(=O)c1ccccc1)OC1COCOC1	CEM	EC50	IIIB	-	p24	<1 µM
COCCOCCOCCOC(=O)C1(C(=O)OCCOCCOCCOC)C2c3cc4c5c6c7c8c9c%10c(cc%11c9c9c(cc(c%12c9c8c5c3-%12)C21)C%11)C=CC1(C=C6C4)CN(CCOCCOCCN)CC%1071	CEM	EC50	IIIB	-	cytopathic effect	>4 µM
N#CC(=C1CCN(C(=O)C(=O)c2c[nH]c3c(-n4cncn4)ncc(F)c23)CC1)c1ccccc1	HeLa	EC50	-	-	luciferase	<1 µM
CCCCOC(=O)c1cc(NC(=S)OC(C)C)ccc1Cl	CEM	EC50	-	RT-V106A	syncytia	2.22 µM
COc1cnc(-n2cnc(C)n2)c2[nH]cc(C(=O)C(=O)N3CCC(=C(c4ccccc4)c4cnn(C)c4)CC3)c12	HeLa	EC50	-	-	luciferase	<1 µM
C=C1CN(S(=O)(=O)c2ccc(C)cc2)CCCN(CCC(C)C)CCCN(S(=O)(=O)c2ccc(C)cc2)C1	MT-4	EC50	NL4-3	-	p24	0.77 µM
COc1cnc(-n2cncn2)c2[nH]cc(C(=O)C(=O)N3CCC(=C(C#N)c4ccccc4)CC3)c12	HeLa	EC50	-	-	luciferase	<1 µM
COc1ccc(S(=O)(=O)N(CC(O)CN(CCc2ccccc2)S(=O)(=O)c2ccccc2)CC2CCCC2)cc1	CEM	EC50	IIIB	-	p24	<1 µM
CCCCCCCCCC(=O)O[C@@]12[C@H](OCOCc3ccccc3)[C@@H](C)[C@@]3(O)[C@@H](C=C(CO)C[C@]4(O)C(=O)C(C)=C[C@@H]34)[C@@H]1C2(C)C	MT-4	EC50	IIIB	-	MTT	0.00027 µg/mL
CC(C)(C)OC(=O)c1cc(NC(=S)OC(C)(C)C)ccc1Cl	CEM	EC50	-	RT-L100I	syncytia	>29.08 µM
NC(=O)c1[nH]c2ccc(Cl)cc2c1S(=O)(=O)c1ccccc1	MT-4	EC50	-	RT-K103N Y181C	cytopathic effect / MTT	10 µM
COc1ccc(S(=O)(=O)N(CC2CCCC2)C[C@@H](O)CN(CCc2ccccc2)C(=O)O[C@H]2CCOC2)cc1	CEM	EC50	IIIB	-	p24	<0.1 µM
N#CC(=C1CCN(C(=O)C(=O)c2c[nH]c3c(-c4cnccn4)ccnc23)CC1)c1ccccc1	HeLa	EC50	-	-	luciferase	<1 µM
O=C(NNCCO)c1[nH]c2ccc(Cl)cc2c1S(=O)(=O)c1ccccc1	MT-4	EC50	-	RT-Y181C	cytopathic effect / MTT	0.04 µM
CO/N=C(\C)COc1cc(NC(=S)OC(C)C)ccc1Cl	CEM	EC50	-	RT-L100I	syncytia	3.023 µM
C=C1CN(S(=O)(=O)c2ccc(C)cc2)CCCN(Cc2cccnc2)CCCN(S(=O)(=O)c2ccc(C)cc2)C1	MT-4	EC50	NL4-3	-	p24	5.6 µM
NCCNC(=O)c1cn([C@@H]2CS[C@@H](CO)O2)c(=O)[nH]c1=O	MT-4	EC50	-	-	syncytia	>200 µM
CCCOC(=S)Nc1ccc(Cl)c(C(=O)OC(C)C)c1	CEM	EC50	IIIB	-	syncytia	0.158 µM
CC1=CC=CC2C1=NC(c1c(F)cccc1F)N2Cc1c(Cl)cccc1Cl	CEM	EC50	-	-	-	3.2 µM
CN(C(=O)[C@H](Cc1ccccc1)NC(=O)Cc1cccc2ccccc12)c1ccccc1	-	EC50	NL4-3	-	fluorescence	1.1 µM
O=C1c2ccc(Cl)cc2C(=O)N1C12CC3CC(CC(C3)C1)C2	CEM	EC50	IIIB	-	syncytia	>25 µM
CCC(C)OC(=S)Nc1ccc(Cl)c(C(=O)OC(C)(C)C)c1	CEM	EC50	-	RT-E138K	syncytia	0.349 µM
Cc1ccccc1Sc1c(C(=O)NCCO)[nH]c2ccc(Cl)cc12	C8166	EC50	IIIB	-	cytopathic effect / MTT	0.08 µM
C=C1CN(S(=O)(=O)c2ccc(C)cc2)CCCN(Cc2ccncc2)CCCN(S(=O)(=O)c2ccc(C)cc2)C1	MT-4	EC50	NL4-3	-	p24	6.13 µM
COc1ccc2c(c1)C(=O)N(c1c(C)cccc1C)C2=O	CEM	EC50	IIIB	-	syncytia	>140 µM
C=CCOc1cc(NC(=S)OC(C)C)ccc1Cl	CEM	EC50	-	RT-Y181C	syncytia	10.5 µM
CC(C)CN(C[C@@H](O)[C@H](Cc1ccc(F)cc1)NC(=O)O[C@H]1C2COC3OCC1C3C2)S(=O)(=O)c1ccc2nc(NC3CC3)sc2c1	MT-4	EC50	NL4-3	-	p24	0.000049 µM
CC(C)COC(=O)N[C@H](Cc1ccccc1)C(=O)N[C@H](Cc1cccc2ccccc12)C(=O)N1CCC(C(=O)O[C@@H](CC(C)C)C(=O)N[C@H](C(N)=O)C(C)C)CC1	HT4 + HT4-6C	EC50	BRU	-	plaque count	14 µM
COc1ccc(S(=O)(=O)N(CC(C)C)C(=O)C(=O)C(=O)[C@@H](Cc2ccccc2)NC(=O)OC2COCOC2)cc1	CEM	EC90	IIIB	-	p24	1 µM
Cc1cn([C@H]2C[C@H](N=[N+]=[N-])[C@@H](CO)O2)c(=O)[nH]c1=O	C8166	EC50	-	-	-	0.029 µg/mL
COc1ccc(S(=O)(=O)N(CC(C)C)C[C@@H](O)CCN(CC2CCCC2)S(=O)(=O)c2cccc(N)c2)cc1	CEM	EC50	IIIB	-	p24	<0.1 µM
C=C1CN(S(=O)(=O)c2ccc(C)cc2)CCCN(C2CCCC2)CCCN(S(=O)(=O)c2ccc(C)cc2)C1	MT-4	EC50	NL4-3	-	p24	6.39 µM
C/C=C\COc1cc(NC(=S)OC(C)C)ccc1OC	CEM	EC50	IIIB	-	syncytia	0.1354 µM
CC(NC(=O)CCCc1nc(-c2ccccn2)no1)c1nc2ccccc2s1	MAGI	EC50	-	-	-	>100 µM
COc1cnc(-c2cnccn2)c2[nH]cc(C(=O)C(=O)N3CCC(=C(c4ccccc4)c4cccnc4)CC3)c12	HeLa	EC50	-	-	luciferase	<1 µM
CC(=O)OC[C@H]1O[C@@H](n2cc(C)c(-n3cncn3)nc2=O)C[C@@H]1N=[N+]=[N-]	C8166	EC50	IIIB Laboratory clade B	-	syncytia	1.6 µM
CC(C)OC(=S)Nc1ccc(Cl)c(C(=O)SC(C)C)c1	CEM	EC50	IIIB	-	syncytia	0.06 µM
Cc1cnc(NC(=O)NC(C)(C)C)n1CC(O)CN(CC(C)C)S(=O)(=O)c1ccccc1	CEM	EC90	IIIB	-	p24	1 µM
Cc1cn([C@H]2CS[C@H](CO)O2)c(=O)[nH]c1=O	MT-4	EC50	-	-	syncytia	>200 µM
CC(C)OC(=S)Nc1ccc(Cl)c(C(=O)OCc2ccccc2)c1	CEM	EC50	-	RT-Y181C	syncytia	15.1 µM
O=C(CN1C(=O)NC2(CCCCC2)C1=O)N[C@@H](Cc1ccccc1)C(=O)Nc1ccccc1	-	EC50	NL4-3	-	fluorescence	>20 µM
CCOC(=O)c1cc(NC(=S)OC(C)C)ccc1C	CEM	EC50	-	RT-E138K	syncytia	14.2 µM
O=c1nc(Oc2c(F)c(F)c(F)c(F)c2F)ccn1[C@@H]1O[C@H](CO)[C@@H](O)[C@H]1O	C8166	EC50	IIIB Laboratory clade B	-	syncytia	1.6 µM
O=c1ccn(N2CC[C@@H](CO)C2)c(=O)[nH]1	MT-4	EC50	RF	-	-	>100 µg/mL
CC(C)O/N=C/c1cc(NC(=S)OC(C)C)ccc1Cl	CEM	EC50	-	RT-L100I	syncytia	0.6366 µM
C=CS(=O)(=O)N1CCC(NS(=O)(=O)c2c(C(N)=O)[nH]c3ccc(Br)cc23)C1	MT-4	EC50	IIIB	-	MTT	9.74 µM
Cc1cccc(S(=O)(=O)c2c(C(=O)NCCO)[nH]c3ccc(Cl)cc23)c1	C8166	EC50	IIIB	-	cytopathic effect / MTT	0.009 µM
CC(=O)N[C@H](C(=O)N[C@@H](Cc1ccccc1)[C@@H](O)CN(CC1CCCCC1)NC(=O)[C@@H](NC(C)=O)C(C)C)C(C)C	MT-2	EC50	MN	-	RT activity	0.3 µM
CC(C)CN(C[C@@H](O)[C@H](Cc1cccc(F)c1)NC(=O)O[C@H]1C2COC3OCC1C3C2)S(=O)(=O)c1ccc2nc(NC3CC3)sc2c1	MT-4	EC50	NL4-3	-	p24	0.000061 µM